{"sequences": {"note": "Protein sequences, listed by entry. Tags and fused reporters are not part of them. Residues count along the entry.", "UniProt Q07021, 74-282": "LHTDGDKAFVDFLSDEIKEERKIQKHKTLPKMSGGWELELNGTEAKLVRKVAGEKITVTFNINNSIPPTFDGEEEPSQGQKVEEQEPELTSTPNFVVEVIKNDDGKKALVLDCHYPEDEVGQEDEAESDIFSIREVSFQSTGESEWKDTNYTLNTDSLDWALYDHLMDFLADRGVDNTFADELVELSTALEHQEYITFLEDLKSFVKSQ"}, "source": "paper PMC8602850", "target": "gC1qR, wild type, mature recombinant (receptor for the globular heads of C1q) (UniProt Q07021)", "experiment": "SPR; gC1qR-WT or gC1qR-ΔΔ immobilised; two-fold dilution series of analyte injected; reference-corrected sensorgrams fit to kinetic models; apparent KD", "data": [{"substance": "SARS-CoV-2 spike S1 protein, recombinant (from UniProt P0DTC2 14-685) (domain or fragment)", "values": [{"measurement": "Kd", "value": 91, "unit": "nM"}]}]}
